Taken from: PubChem BioAssay AID504761 (Drosophila RNAi Screening Center, 2011)
The screen tested about 22,000 reagents; shown is a random part of those with a known target gene and a result. In the full data, 116 (0.52%) got an active call. 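Calls depend on retest data that are not deposited; infection was ranked per plate without normalising between plates; the unit of the infection score is not given.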 Raw values vary from plate to plate and are shown uncorrected. The numbers tell different reagents against one gene apart. Names joined by + are all predicted targets of the reagent. Not stated in the record: the amount of reagent, the time to read-out.

- Purpose: 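Insect host genes that dengue virus relies on to spread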 (primary screen)
- System: D.Mel-2 cells from Drosophila
- Reagents: long dsRNA against Drosophila genes
- Treatment: infection with dengue virus type 2; dose and infection time not stated
- Detection: 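Cells stained for dengue envelope protein and imaged; percent of infected cells per well on duplicate plates, ranked by infection, with stained nuclei counted for cell number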
- Reading the numbers: infection score: higher = more virus-infected cells; cell count: higher = more cells in the well
- Active means: 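Low infection ranks in the two replicates (chance level up to 0.065) followed by a retest with a 1.5-fold or larger significant decrease, p below 0.05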
- Calls: active = confirmed: knock-down lowers infection; inactive = not picked or not confirmed

Target gene	reagent	infection score, replicate 1	infection score, replicate 2	cell count, replicate 1	cell count, replicate 2	Outcome
CG5938 (GeneID 43290)	1	2.06	5.15	6457	4931	inactive
CG5938 (GeneID 43290)	2	4.24	2.65	7023	6425	inactive
CG2871 (GeneID 31411)	1	8.62	9.58	6463	6861	inactive
CG2871 (GeneID 31411)	2	31.4	15	5215	5640	inactive
mRpL13 (GeneID 35145)	1		10.5	660	6337	inactive
mRpL13 (GeneID 35145)	2	4.48	3.28	6357	5675	inactive
CG31371 (GeneID 43626)	1	7.69	9.68	2081	5423	inactive
CG15393 (retired record) (GeneID 33433)	1	1.69	1.47	6463	6530	inactive
CG15393 (retired record) (GeneID 33433)	2	11.1	5.77	6631	6944	inactive
Sugb (GeneID 39314)	1	7.5	3.57	6264	6910	inactive
grn (GeneID 40962)	1	8.59	12.3	6435	6381	inactive
grn (GeneID 40962)	2	2.02	2.09	6181	6024	inactive
CG9801 (GeneID 41044)	1	2.28	2.99	6897	6649	active
Sh3beta (GeneID 38820)	1	7.33	8.25	3002	5142	inactive
Sh3beta (GeneID 38820)	2	2.2	12.8	6641	6091	inactive
Sh3beta (GeneID 38820)	3	3.66	9.35	6721	6715	inactive
CG17159 + CG17162	1	4.47	5.88	6022	6289	inactive
CG17159 + CG17162	2	5.91	2.04	5859	6040	inactive
vanin-like (GeneID 31551)	1	0.02	0.08	6536	6620	active
TwdlF (GeneID 40534)	1	10.3	20.1	4325	5540	inactive
TwdlF (GeneID 40534)	2	8.16	10.1	6315	6339	inactive
Sry-beta (GeneID 43570)	1	3.36	6.86	6257	6927	inactive
Sry-beta (GeneID 43570)	2	6.26	3.77	6434	6888	inactive
CG34446 (GeneID 5740549)	1	2.31	1.12	6570	6234	inactive
mop (GeneID 39610)	1	5.6	4.77	5590	6284	inactive
mop (GeneID 39610)	2	0.27	0.52	367	384	inactive
eIF6 (GeneID 37776)	1	19	15.5	6409	6567	inactive
eIF6 (GeneID 37776)	2	6.8	23.8	4938	4161	inactive
trbl (GeneID 43999)	1	11.2	4.85	6256	6044	inactive
eIF4E5 (GeneID 38878)	1	10.1	6.75	6533	6191	inactive
eIF4E5 (GeneID 38878)	2	4.38	4.14	6077	6203	inactive
tos (GeneID 35119)	1	32.7	16.2	5796	5878	inactive
Flo2 (GeneID 32425)	1	0.45	0.47	6449	6782	inactive
Flo2 (GeneID 32425)	2	5.94	6.16	6588	6705	inactive
CG14949 (GeneID 38328)	1	5.5	7.17	5870	5608	inactive
EndoB (GeneID 37218)	1	3.49	4.66	5868	6731	inactive
CG14763 (GeneID 35757)	1	10.4	3.31	5903	695	inactive
CG14763 (GeneID 35757)	2	12	19.1	5618	5403	inactive
CG42812 + CG42811	1	4.26	0.63	6146	6383	inactive
CG42812 + CG42811	2	2.44	12.6	6555	6555	inactive
CG32054 (GeneID 326185)	1	4.28	3.93	5439	5831	inactive
CG32054 (GeneID 326185)	2	5.54	4.36	6210	5920	inactive
Paris (GeneID 33657)	1	29.1	17.4	5106	5290	inactive
Paris (GeneID 33657)	2	10.2	27.3	654	5686	inactive
BCAS2 (GeneID 43348)	1	10.3	14.7	5524	5588	inactive
BCAS2 (GeneID 43348)	2	11.7	8.15	6174	6493	inactive
Mlf (GeneID 36750)	1	10.9	10.2	6402	6006	inactive
Mlf (GeneID 36750)	2	5.19	1.29	6433	6139	inactive
shtd (GeneID 32473)	1	3.69	1.28	4309	4284	inactive
shtd (GeneID 32473)	2	5.24	2.9	6054	5821	inactive
CG31871 (GeneID 34463)	1	3.01	0.96	6776	7194	inactive
CG31871 (GeneID 34463)	2	3.69	4.34	6746	6704	inactive
CG31871 (GeneID 34463)	3	5.26	6.74	6041	5754	inactive
CG32631 (GeneID 32311)	1	3.89	4.8	6293	6707	inactive
CG32631 (GeneID 32311)	2	17.5	3.8	3862	1291	inactive
mRpL15 (GeneID 40261)	1	9.41	17.9	1222	1824	inactive
mRpL15 (GeneID 40261)	2	6.21	3.18	4717	5758	inactive
gdl-ORF39 + gdl	1	2.15	5.29	6081	6546	inactive

Already shown: an excerpt of the list.
Target gene	reagent	infection score, replicate 1	infection score, replicate 2	cell count, replicate 1	cell count, replicate 2	Outcome
CG14763 (GeneID 35757)	2	12	19.1	5618	5403	inactive
CG42812 + CG42811	1	4.26	0.63	6146	6383	inactive
CG42812 + CG42811	2	2.44	12.6	6555	6555	inactive
